The exact form of at least one protein or probe is not confirmed. At least one verdict rests on a figure or table, not on a statement of the authors.
Biological target: HigA2 (Vibrio cholerae) (UniProt Q9KMA5)
Test: SAXS
Conditions: recombinant protein; protein details: C-terminal His6, uncleavable

Sequences of proteins named here, by UniProt entry; tags and fusion partners are left off. A line that says so, or that is headed by a name, gives the form on record, which may keep a tag or linker. Residues count along the entry.
UniProt Q9KMA5, 2-104, tags left off: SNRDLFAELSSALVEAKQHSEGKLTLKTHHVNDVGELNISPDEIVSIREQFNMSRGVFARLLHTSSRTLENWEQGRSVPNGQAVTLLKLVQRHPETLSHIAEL

Sequence: TGCCATCTGTACGCTTGGTGCGTACACTTCCTA (double strand) [Opr33]
- binding result: binds

— paper PMC11006873, “Fuzzy recognition by the prokaryotic transcription factor HigA2 from Vibrio cholerae” (Nature Communications, 2024)
